Anti-infective test results gathered from many reports (values: NIAID ChemDB through PubChem).

Shared fields: whole-cell or culture tests; organism: Mycobacterium avium complex; measure: MIC

Lines come from different laboratories, so protocols vary.

compound,strain or isolate,value
CCCNNC(=O)O[C@H]1[C@H](O[C@@H]2[C@@H](C)[C@H](O[C@H]3C[C@@](C)(OC)[C@@H](OC(C)=O)[C@H](C)O3)[C@@H](C)C(=O)O[C@H](CC)[C@@](C)(O)[C@H](O)[C@@H](C)/C(=N/OCCCC3CCCCC3)[C@H](C)CC2(C)O)O[C@H](C)C[C@@H]1N(C)C,20092 (clarithromycin-resistant),0.78 µg/mL
O=C1c2cc(F)ccc2-n2c1nc1ncccc1c2=O,101,5 µg/mL
CN[C@@H]1[C@H](O[C@H]2[C@H](O[C@H]3[C@H](O)[C@@H](O)[C@H](N=C(N)N)[C@@H](O)[C@@H]3N=C(N)N)O[C@@H](C)[C@]2(O)C=O)O[C@@H](CO)[C@H](O)[C@H]1O,N-314 (HIV-),4 µg/mL
CCOC(=O)c1ccc2c(c1)C(=O)c1nc3c(OC)cccc3c(=O)n1-2,101,1 µg/mL
CCCCCCCCO[C@@H]1OC(C(CO[C@@H]2O[C@@H]([C@H](O)CO)[C@H](O)[C@H]2O)OC(C)=O)[C@H](OC(C)=O)[C@H]1OC(C)=O,NJ211,>128 µg/mL
CC[C@H]1OC(=O)[C@H](C)[C@@H](O[C@H]2C[C@@](C)(OC)[C@@H](OC(C)=O)[C@H](C)O2)[C@H](C)[C@@H](O[C@@H]2O[C@H](C)C[C@H](N(C)C)[C@H]2OC(=O)NNCc2cccc([N+](=O)[O-])c2)C(C)(O)C[C@@H](C)/C(=N\OCCCC2CCCCC2)[C@H](C)[C@@H](O)[C@]1(C)O,20039 (clarithromycin-susceptible),0.78 µg/mL
CCCCCCCCO[C@@H]1O[C@H]([C@@H](COC)O[C@H]2O[C@H](CO)[C@@H](O)[C@@H]2O)[C@H](OC)[C@H]1OC,NJ211,>128 µg/mL
CO[C@H]1/C=C/O[C@@]2(C)Oc3c(C)c(O)c4c(O)c(c5c(c4c3C2=O)NC2(CCN(CC(C)C)CC2)N=5)=NC(=O)/C(C)=C\C=C\[C@H](C)[C@H](O)[C@@H](C)[C@@H](O)[C@@H](C)[C@H](OC(C)=O)[C@@H]1C,CIPT 140310006,0.05 µg/mL
CCCCCCO/N=C1\[C@H](C)CC(C)(O)[C@H](O[C@@H]2O[C@H](C)C[C@H](N(C)C)[C@H]2O)[C@@H](C)[C@H](OC2C[C@@](C)(OC)[C@@H](O)[C@H](C)O2)[C@@H](C)C(=O)O[C@H](CC)[C@@](C)(O)[C@H](O)[C@H]1C,20096 (clarithromycin-resistant),6.25 µg/mL
O=C1c2ccccc2-n2c1nc1ccc(F)cc1c2=O,19075,1 µg/mL
CC1(C)N=C(N)N=C(N)N1OCCCOc1cc(Cl)c(Cl)cc1Cl,ATCC35801,2 µg/mL
CC1(C)S[C@@H]2[C@H](NC(=O)C(C(=O)O)c3ccccc3)C(=O)N2[C@H]1C(=O)O,CIPT 140310003 (rough),25 µg/mL
CO[C@H]1/C=C/O[C@@]2(C)Oc3c(C)c(O)c4c(O)c(c5c(c4c3C2=O)NC2(CCN(CC(C)C)CC2)N=5)=NC(=O)/C(C)=C\C=C\[C@H](C)[C@H](O)[C@@H](C)[C@@H](O)[C@@H](C)[C@H](OC(C)=O)[C@@H]1C,N-978 (HIV+),0.25 µg/mL
CC[C@H]1OC(=O)[C@H](C)[C@@H](OC(=O)Cc2ccncc2)[C@H](C)[C@@H](O[C@@H]2O[C@H](C)C[C@H](N(C)C)[C@H]2O)C(C)(O)C[C@@H](C)/C(=N\OCCCOc2ccccc2)[C@H](C)[C@@H](O)[C@]1(C)O,20039 (clarithromycin-susceptible),6.25 µg/mL
CCCCCCCCO[C@@H]1O[C@H]([C@@H](COCc2ccccc2)O[C@H]2O[C@H](CO)[C@@H](O)[C@@H]2O)[C@H](OCc2ccccc2)[C@H]1OCc1ccccc1,NJ211,>128 µg/mL
CN1CCN(c2ccc3c(=O)n4c(nc3c2)C(=O)c2cc(F)ccc2-4)CC1,19075,5 µg/mL
CCc1nc(N)nc(N)c1-c1ccc(Cl)cc1,ATCC49601,32 µg/mL
CCNC(=O)[C@@H](NC(=O)Cc1ccccc1)[C@@H]1N[C@@H](C(=O)NCCNC(=O)[C@@H]2N[C@@H]([C@H](NC(=O)Cc3ccccc3)C(=O)NCC)SC2(C)C)C(C)(C)S1,CIPT 140310002,25 µg/mL
O=C1c2cc(Cl)ccc2-n2c1nc1ccncc1c2=O,101,<0.2 µg/mL
Cc1onc(-c2ccccc2Cl)c1C(=O)N[C@@H]1C(=O)N2[C@@H]1SC(C)(C)[C@@H]2C(=O)O,CIPT 140310003 (rough),25 µg/mL
O=C1c2cc(F)ccc2-n2c1nc1c(F)cccc1c2=O,19075,1 µg/mL
CC[C@H]1OC(=O)[C@H](C)[C@@H](O[C@H]2C[C@@](C)(OC)[C@@H](OC(C)=O)[C@H](C)O2)[C@H](C)[C@@H](O[C@@H]2O[C@H](C)C[C@H](N(C)C)[C@H]2OC(=O)NNCc2ccccc2[N+](=O)[O-])C(C)(O)C[C@@H](C)/C(=N\OCCCC2CCCCC2)[C@H](C)[C@@H](O)[C@]1(C)O,20096 (clarithromycin-resistant),0.39 µg/mL
CC[C@H]1OC(=O)[C@H](C)[C@@H](O[C@H]2C[C@@](C)(OC)[C@@H](O)[C@H](C)O2)[C@H](C)[C@@H](O[C@@H]2O[C@H](C)C[C@H](N(C)C)[C@H]2O)[C@](C)(OC)C[C@@H](C)C(=O)[C@H](C)[C@@H](O)[C@]1(C)O,905,8 µg/mL
CCCCCCCCc1ccc2nc3n(c(=O)c2c1)-c1ccc(Cl)cc1C3=O,19075,5 µg/mL
CCCCCCCCO[C@@H]1O[C@@H](C(COCc2ccccc2)O[C@@H]2O[C@@H](C(COC(C)=O)OC(C)=O)[C@H](OC(C)=O)[C@H]2OC(C)=O)[C@H](OCc2ccccc2)[C@H]1OCc1ccccc1,NJ211,>128 µg/mL
CC(=O)Nc1ccc(/C(C)=N\NC(N)=S)cc1,100,16 µg/mL
CCCCCCCCCCCCO/N=C1\[C@H](C)CC(C)(O)[C@H](O[C@@H]2O[C@H](C)C[C@H](N(C)C)[C@H]2O)[C@@H](C)[C@H](OC2C[C@@](C)(OC)[C@@H](O)[C@H](C)O2)[C@@H](C)C(=O)O[C@H](CC)[C@@](C)(O)[C@H](O)[C@H]1C,20039 (clarithromycin-susceptible),25 µg/mL
CCCCCCCCO[C@@H]1O[C@H]([C@@H](CO)O[C@H]2O[C@H](CO)[C@@H](O)[C@@H]2O)[C@H](O)[C@H]1O,NJ211,>128 µg/mL
CC[C@H]1OC(=O)[C@H](C)[C@@H](OC2C[C@@](C)(OC)[C@@H](O)[C@H](C)O2)[C@H](C)[C@@H](O[C@@H]2O[C@H](C)C[C@H](N(C)C)[C@H]2O)C(C)(O)C[C@@H](C)/C(=N\OCCc2cccs2)[C@H](C)[C@@H](O)[C@]1(C)O,20096 (clarithromycin-resistant),25 µg/mL
O=C1c2cc(I)ccc2-n2c1nc1c(I)cc(I)cc1c2=O,19075,5 µg/mL
CO[C@H]1/C=C/O[C@@]2(C)Oc3c(C)c(O)c4c(=O)c(c5oc6cc(N7CCN(CC(C)C)CC7)cc(=O)c6nc5c4c3=C2O)NC(=O)/C(C)=C\C=C\[C@H](C)[C@H](O)[C@@H](C)[C@@H](O)[C@@H](C)[C@H](OC(C)=O)[C@@H]1C,N-981 (HIV+),0.0625 µg/mL
CCCCCCO/N=C1\[C@H](C)CC(C)(O)[C@H](O[C@@H]2O[C@H](C)C[C@H](N(C)C)[C@H]2O)[C@@H](C)[C@H](O[C@H]2C[C@@](C)(OC)[C@@H](OC(C)=O)[C@H](C)O2)[C@@H](C)C(=O)O[C@H](CC)[C@@](C)(O)[C@H](O)[C@H]1C,20039 (clarithromycin-susceptible),1.56 µg/mL
CCCCCCCCO[C@H]1OC([C@@H](COC)O[C@H]2O[C@H]([C@@H](O)CO)[C@@H](O)[C@@H]2O)[C@@H](OC)[C@@H]1OC,NJ304,>12.8 µg/mL

A second listing of 3 rows from above:

compound,strain or isolate,value
CCCCCCCCO[C@@H]1O[C@H]([C@@H](COC)O[C@H]2O[C@H](CO)[C@@H](O)[C@@H]2O)[C@H](OC)[C@H]1OC,NJ211,>128 µg/mL
CC[C@H]1OC(=O)[C@H](C)[C@@H](OC2C[C@@](C)(OC)[C@@H](O)[C@H](C)O2)[C@H](C)[C@@H](O[C@@H]2O[C@H](C)C[C@H](N(C)C)[C@H]2O)C(C)(O)C[C@@H](C)/C(=N\OCCc2cccs2)[C@H](C)[C@@H](O)[C@]1(C)O,20096 (clarithromycin-resistant),25 µg/mL
CCCCCCCCO[C@@H]1O[C@H]([C@@H](COCc2ccccc2)O[C@H]2O[C@H](CO)[C@@H](O)[C@@H]2O)[C@H](OCc2ccccc2)[C@H]1OCc1ccccc1,NJ211,>128 µg/mL